Taken from: PubChem BioAssay AID624099 (ICCB-Longwood, 2012)
Test: 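Human genes that papillomavirus E2 requires to repress the HPV18 LCR promoter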 (primary screen). System: human C33A cervical carcinoma cells (HPV-negative) stably expressing BPV1 E2 and an HPV18 LCR luciferase reporter. Reagent: siRNA pool against human genes, 40 nM. Duration: 72 h. Measured: 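Per-well luciferase luminescence, z-scored on each plate against the plate mean and SD with control wells left out, then averaged across three replicate plates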. Scale: mean z-score and z-score: higher = stronger reporter signal, weaker E2 silencing. Call rule: 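Hit if mean z-score reaches 2 and two or more of three replicate z-scores also reach 2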.
In all, the deposit lists about 21,000 reagents; this is an unselected part. In the full data, 497 (2.4%) are marked active. 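Higher z means weaker E2 silencing; only reporter increases were scored, and knock-downs that hurt cell survival may mask genuine repressor factors.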 Reagents against one gene are numbered here.

| gene symbol | reagent | mean z-score | z-score, replicate A | z-score, replicate B | z-score, replicate C | activity call |
| --- | --- | --- | --- | --- | --- | --- |
| MDH1B (malate dehydrogenase 1B) | 1 | 0.63 | 0.32 | 0.74 | 0.81 | inactive |
| TRIP11 (thyroid hormone receptor interactor 11) | 1 | 1.46 | 1.7 | 1.39 | 1.29 | inactive |
| SART3 (spliceosome associated factor 3, U4/U6 recycling protein) | 1 | -1.07 | -1.29 | -1.06 | -0.85 | inactive |
| NPHS1 (NPHS1 adhesion molecule, nephrin) | 1 | 1.48 | 1.47 | 1.47 | 1.49 | inactive |
| PRKCG (protein kinase C gamma) | 1 | 0.02 | -0.15 | 0.08 | 0.14 | inactive |
| MICA (MHC class I polypeptide-related sequence A) | 1 | -0.36 | -0.05 | -0.37 | -0.67 | inactive |
| PANX2 (pannexin 2) | 1 | 0.23 | 0.03 | 0.13 | 0.54 | inactive |
| TNNI3K (TNNI3 interacting kinase) | 1 | 0.47 | -0.49 | 1.02 | 0.89 | inactive |
| YKT6 (YKT6 vesicular SNARE protein) | 1 | 1.38 | 1.62 | 1.35 | 1.17 | inactive |
| ZC3H18 (zinc finger CCCH-type containing 18) | 1 | -0.83 | -0.8 | -0.55 | -1.13 | inactive |
| CNOT8 (CCR4-NOT transcription complex subunit 8) | 1 | -0.67 | -0.82 | -0.72 | -0.48 | inactive |
| SLC39A12 | 1 | -2.11 | -2.44 | -2.11 | -1.78 | inactive |
| ZNF3 (zinc finger protein 3) | 1 | 0.51 | 0.22 | 0.51 | 0.78 | inactive |
| OR1S2 (olfactory receptor family 1 subfamily S member 2) | 1 | 0.3 | 0.38 | 0.56 | -0.05 | inactive |
| OLFM4 (olfactomedin 4) | 1 | 0.11 | 0.04 | 0.04 | 0.26 | inactive |
| CTSW (cathepsin W) | 1 | 2.29 | 2.17 | 3.43 | 1.28 | active |
| DMAC2 (distal membrane arm assembly component 2) | 1 | 0.31 | 1.26 | 0.34 | -0.67 | inactive |
| NOL11P1 (NOL11 pseudogene 1) | 1 | -0.52 | -0.76 | -0.23 | -0.57 | inactive |
| DCDC1 (doublecortin domain containing 1) | 1 | 0.98 | 1.13 | 0.82 | 0.98 | inactive |
| DCDC1 (doublecortin domain containing 1) | 2 | 0.53 | 0.77 | 0.66 | 0.18 | inactive |
| KCNJ5-AS1 (KCNJ5 antisense RNA 1) | 1 | 0.91 | 1.16 | 0.65 | 0.91 | inactive |
| RASL12 (RAS like family 12) | 1 | -0.9 | -0.58 | -1.18 | -0.95 | inactive |
| MMP16 (matrix metallopeptidase 16) | 1 | -0.61 | -0.72 | -0.64 | -0.46 | inactive |
| BRPF1 (bromodomain and PHD finger containing 1) | 1 | -0.08 | 0 | 0 | -0.25 | inactive |
| MRAS (muscle RAS oncogene homolog) | 1 | 0.39 | 0.28 | 0.38 | 0.51 | inactive |
| ZMYND10 (zinc finger MYND-type containing 10) | 1 | 3.46 | 3.92 | 3.11 | 3.35 | active |
| TAS2R13 (taste 2 receptor member 13) | 1 | -0.61 | -0.86 | -0.36 | -0.6 | inactive |
| ZNF675 (zinc finger protein 675) | 1 | 0.51 | 0.56 | 0.73 | 0.25 | inactive |
| ZNF34 (zinc finger protein 34) | 1 | 0.27 | 0.11 | 0.17 | 0.52 | inactive |
| PKD1L1-AS1 (PKD1L1 antisense RNA 1) | 1 | 1.04 | 0.98 | 1.01 | 1.14 | inactive |
| DNAI1 (dynein axonemal intermediate chain 1) | 1 | 0.05 | -0.09 | 0.08 | 0.17 | inactive |
| THBS3 (thrombospondin 3) | 1 | -0.82 | -0.35 | -1.07 | -1.03 | inactive |
| SHC1 (SHC adaptor protein 1) | 1 | 0.29 | 0.55 | 0.04 | 0.27 | inactive |
| INSYN1 (inhibitory synaptic factor 1) | 1 | 0.33 | 0.68 | 0.12 | 0.2 | inactive |
| ALG1L1P (ALG1 like 1, pseudogene) | 1 | -0.39 | -0.62 | -0.36 | -0.2 | inactive |
| ATP6V1F (ATPase H+ transporting V1 subunit F) | 1 | -0.9 | -0.45 | -1.29 | -0.97 | inactive |
| LOC284964 (retired record) | 1 | 0.25 | 0.31 | 0.41 | 0.04 | inactive |
| DAPP1 (dual adaptor of phosphotyrosine and 3-phosphoinositides 1) | 1 | 0.66 | 0.7 | 1.04 | 0.25 | inactive |
| MASP1 (MBL associated serine protease 1) | 1 | -0.33 | -0.26 | -0.19 | -0.54 | inactive |
| RBM5 (RNA binding motif protein 5) | 1 | -0.08 | -0.13 | -0.14 | 0.02 | inactive |
| C9orf153 (chromosome 9 open reading frame 153) | 1 | -0.04 | 0 | -0.05 | -0.07 | inactive |
| HOXC9 (homeobox C9) | 1 | -0.73 | -0.56 | -0.72 | -0.92 | inactive |
| OR13F1 (olfactory receptor family 13 subfamily F member 1) | 1 | 0.55 | 0.64 | 0.24 | 0.78 | inactive |
| IFT80 (intraflagellar transport 80) | 1 | 0.49 | 0.75 | 0.43 | 0.28 | inactive |
| LINC00269 (long independently transcribed non-coding RNA 269) | 1 | 0.91 | 0.73 | 0.86 | 1.15 | inactive |
| KCNH4 (potassium voltage-gated channel subfamily H member 4) | 1 | -0.28 | -0.04 | -0.49 | -0.3 | inactive |
| ATG10 (autophagy related 10) | 1 | 1.57 | 1.52 | 1.74 | 1.46 | inactive |
| SV2C (synaptic vesicle glycoprotein 2C) | 1 | 2.13 | 2.33 | 1.93 | 2.13 | active |
| TOR3A (torsin family 3 member A) | 1 | 0.71 | 0.59 | 0.68 | 0.85 | inactive |
| FXYD3 (FXYD domain containing ion transport regulator 3) | 1 | 1.19 | 1.31 | 1.22 | 1.05 | inactive |
| TERF1P5 (TERF1 pseudogene 5) | 1 | 1.49 | 1.98 | 1.46 | 1.02 | inactive |
| POLR2J3 (RNA polymerase II subunit J3) | 1 | 1 | 0.49 | 0.92 | 1.59 | inactive |
| TNFSF9 (TNF superfamily member 9) | 1 | 0.89 | 0.84 | 0.87 | 0.97 | inactive |
| ABCA13 (ATP binding cassette subfamily A member 13) | 1 | -0.09 | -0.24 | -0.2 | 0.15 | inactive |
| RGS11 (regulator of G protein signaling 11) | 1 | -0.97 | -0.64 | -1.18 | -1.09 | inactive |
| GNL3L (G protein nucleolar 3 like) | 1 | -1.26 | -1.49 | -1.73 | -0.58 | inactive |
| IL1R2 (interleukin 1 receptor type 2) | 1 | 1.49 | 1.48 | 1.49 | 1.52 | inactive |

Records above marked active, once more:
| gene symbol | reagent | mean z-score | z-score, replicate A | z-score, replicate B | z-score, replicate C | activity call |
| --- | --- | --- | --- | --- | --- | --- |
| CTSW (cathepsin W) | 1 | 2.29 | 2.17 | 3.43 | 1.28 | active |
| ZMYND10 (zinc finger MYND-type containing 10) | 1 | 3.46 | 3.92 | 3.11 | 3.35 | active |
| SV2C (synaptic vesicle glycoprotein 2C) | 1 | 2.13 | 2.33 | 1.93 | 2.13 | active |
